Anti-infective test results gathered from many reports (values: NIAID ChemDB through PubChem).

Shared fields: host cell toxicity; endpoint: CC50

CCn: concentration that lowers growth or viability of the cells by n%.

structure | read by | cells | result
C[C@H]1[C@H](O)[C@@H](C)/C=C/C=C/C=C/C=C/C=C/C=C/C=C/[C@H](O[C@@H]2O[C@H](C)[C@@H](O)[C@H](N)[C@@H]2O)C[C@@H]2O[C@](O)(C[C@@H](O)C[C@@H](O)CC[C@H](O)[C@@H](O)C[C@@H](O)CC(=O)O[C@H]1C)C[C@H](O)[C@H]2C(=O)O | MTT / tetrazolium | Mouse neuroblastoma CCL131 | 15.62 µg/mL
CCOC(=O)C(Nc1ccc(OC)cc1)(c1c[nH]c2ccccc12)C(F)(F)F | MTT | TZM-bl | 40.8 µM
CCn1cc(C(=O)O)c(=O)c2ccc(-c3ccncc3)cc21 | - | VERO | >200 µg/mL
Nc1ccn(C[C@@H](CO)OCP(=O)(O)O)c(=O)n1 | - | HSB-2 | 39 µg/mL
COc1nc(N)nc2c1ncn2C=C1CC1CO | - | MEF | 261 µM
COc1cc2oc(=O)cc(O)c2c(O)c1Oc1ccc(-c2cc(=O)c3c(O)cc(O)cc3o2)cc1 | MTT | HepG 2.2.15 cells | <20 µg/mL
C/C(=C\C=C\[C@@H](C)[C@H]1CC[C@@]2(C)C3CC[C@H]4C(C)(C)C(=O)CC[C@]4(C)[C@@]3(O)[C@@H](O)C[C@]12C)C(=O)O | - | P-388 | 33.53 µM
CC(C)CCC[C@@H](C)[C@H]1CC[C@H]2[C@@H]3C(=O)C=C4C[C@@H](O)CC[C@]4(C)[C@H]3CC[C@]12C | tetrazolium | Vero cells | 75 µM
O=C1C(=O)c2ccccc2-c2ccccc21 | MTT / absorbance | Normal Vero cell line | 25 µg/mL
Nc1ccc(S(=O)(=O)Nc2ncccn2)cc1 | MTT | CRL-1634 | >98 µM
COc1cc(C)ccc1O.COc1cc(C=O)ccc1O | MTT | C8166 cells | 0.66 µM
NC(=O)c1ncn([C@@H]2O[C@H](CO)[C@@H](O)[C@H]2O)n1 | - | CV-1 | 33 µg/mL
O=C(O)c1ccccn1 | absorbance | J774A.1 | 2538 µM
CC(=O)O[C@H]1CC[C@@]2(C)C(=CC[C@H]3[C@@H]4CC[C@H]([C@H](C)CCCC(C)(C)O)[C@@]4(C)CC[C@@H]32)C1 | tetrazolium | Vero cells | >128 µM
NC(=O)c1nn(Cc2cccc(NC(=O)c3ccco3)c2)c2ccccc12 | MTT | Huh7.5.1 | >10 µM
Nc1nc2c(ncn2C[C@H]2CC[C@@H](CO)C2)c(=O)[nH]1 | - | E6SM | >400 µg/mL
O=C(O)c1c(-c2ccccc2)nc(SCc2nc3ccccc3[nH]2)[nH]c1=O | MTT | Huh7 | 564 µM
COc1cccc(C(=O)NC2N=C(c3ccccc3)c3ccccc3NC2=O)c1 | - | VERO | 2 µM
CCn1cc2c(=O)ncnc-2c2ccc(-c3ccncc3)cc21 | - | VERO | >100 µg/mL
O=C(CCCCCCC(=O)Nc1ccccc1)NO | MTT | J-Lat 10.6 | 0.77 µM
COC(=O)/C(C)=C/C=C/[C@@H](C)[C@H]1CC[C@@]2(C)C3CC[C@H]4C(C)(C)C(=O)CC[C@]4(C)[C@@]3(O)CC[C@]12C | - | P-388 | >40 µM
Nc1nc(=O)c2ncn([C@H]3O[C@@H](CO)[C@H](O)[C@@H]3O)c2c(=O)[nH]1 | - | 2.2.15 | 2400 µM
COc1ccc(/C=C/C=C/C(=O)[Se]c2ccccc2)cc1 | WST | Li-7 | >100 µM
COC(=O)[C@H](C)NP(=O)(OC[C@@H]1C=C[C@H](n2cnc3c(N)ncnc32)O1)Oc1ccccc1 | - | CEM | 3.75 µM
Nc1nc(N)c2ncn(CCOCP(=O)(O)O)c2n1 | - | HSB-2 | 51 µg/mL
CCn1cc(C(N)=O)c(=O)c2ccc(-c3ccno3)cc21 | - | VERO | >12.5 µg/mL
CCCCC1(CC(=O)OCC)C(=O)N(c2ccccc2)N(c2ccccc2)C1=O | cell count / luminescence | HepG2 | 26.6 µM
Cc1cccc2c1N=C(c1ccccc1)C2CN1CCC(NS(C)(=O)=O)C1 | - | THP-1 | >64 µM
CC(=O)O[C@@H](/C=C(\C)C(=O)O)C[C@@H](C)[C@H]1CC[C@@]2(C)C3CC[C@H]4C(C)(C)C(=O)CC[C@]4(C)C3=CC[C@]12C | - | P-388 | 16.36 µM
O=C(/C=C/c1ccc(O)c(O)c1)[Se]c1ccccc1 | WST | HEK 293 | 92.3 µM
NC(=O)c1nn(Cc2cccc(NC(=O)C3CC3)c2)c2ccccc12 | MTT | Huh7.5.1 | >10 µM
COc1cc(/C=C/C(=O)[Se]c2ccccc2)ccc1O | WST | HLE | >100 µM
N#Cc1c(-c2ccc(Cl)cc2)nc(NCc2nc3ccccc3[nH]2)[nH]c1=O | MTT | Huh7 | 986 µM
CO[C@H]1/C=C/O[C@@]2(C)Oc3c(C)c(O)c4c(O)c(c(/C=N/N5CCN(C)CC5)c(O)c4c3C2=O)NC(=O)/C(C)=C\C=C\[C@H](C)[C@H](O)[C@@H](C)[C@@H](O)[C@@H](C)[C@H](OC(C)=O)[C@@H]1C | MTT | RAW 264.7 | 0.01 µM
COc1ccc(N2C(=O)C(O)=C(C(=O)/C=C/c3ccccc3)C2c2ccc(Cl)cc2)cc1 | - | GHOST R5 | 56 µM
OC[C@H]1C[C@@H](n2cnc3c(SCc4ccc(Cl)cc4)ncnc32)[C@H](O)[C@@H]1O | MTT | CRL-1634 | >100 µM
CCn1cc(C(N)=O)c(=O)c2ccc(Cl)cc21 | - | VERO | >100 µg/mL
C#CC[C@@H](C(=O)N[C@H](/C=C/C(=O)OCC)C[C@@H]1CCNC1=O)n1cccc(NC(=O)c2cc(C)on2)c1=O | - | H1-HELA | 572 µM
O=C(/C=C/C=C/c1ccc(Br)cc1)[Se]c1ccccc1 | WST | Li-7 | >100 µM
O=C(O)c1c(-c2ccc(O)cc2)nc(NCc2nc3ccccc3[nH]2)[nH]c1=O | MTT | Huh7 | 987 µM
O=C(NC1N=C(c2cccc(Cl)c2)c2ccccc2NC1=O)c1ccc([N+](=O)[O-])cc1 | - | HEP-2 | 7 µM
CC[C@@]1(O)C(=O)OCc2c1cc1n(c2=O)Cc2cc3c(N)cccc3nc2-1 | MTT | WI-38 | 0.4 µg/mL
COc1cccc(C2(c3ccccc3)NC(NC(=O)C3CCCCC3)C(=O)Nc3ccccc32)c1 | - | HEP-2 | 2 µM
C[C@H]1[C@@H](CCCOP(=O)(O)Oc2ccccc2)O[C@@H]2OC3(C)CC[C@H]4[C@H](C)CC[C@@H]1[C@@]24OO3 | - | Human foreskin fibroblasts | 55.04 µM
CC(C)(c1ccccc1)c1ccc(OCCCn2ccnc2)cc1 | cell count / luminescence | HepG2 | >22.7 µM
O=C(/C=C/c1ccccc1)C1=C(O)C(=O)N(c2cccc(C(=O)O)c2)C1c1ccc([N+](=O)[O-])cc1 | - | GHOST R5 | >100 µM
ClCc1nc2ccccc2[nH]1 | MTT | Huh7 | 137 µM
COC(=O)c1ccc(C(=O)NC2N=C(c3ccccc3)c3ccccc3NC2=O)cc1 | - | HEP-2 | 6.5 µM
Cc1ccc(-n2cc(C(N)=O)c(=O)c3ccc(-c4ccncc4)cc32)cc1 | - | VERO | >25 µg/mL
CCC[C@H](NC(=O)[C@@H]1[C@H]2CCC[C@H]2CN1C(=O)[C@@H](NC(=O)[C@@H](NC(=O)c1cnccn1)C1CCCCC1)C(C)(C)C)C(=O)C(=O)NC1CC1 | MTT | Huh7 | 90 µM
Cc1c(N)nc([C@H](CC(N)=O)NC[C@H](N)C(N)=O)nc1C(=O)N[C@H](C(=O)N[C@H](C)[C@@H](O)[C@H](C)C(=O)N[C@H](C(=O)NCCc1nc(-c2nc(C(=O)NCCC[S+](C)C)cs2)cs1)[C@@H](C)O)C(O[C@@H]1O[C@@H](CO)[C@@H](O)[C@H](O)[C@@H]1O[C@H]1O[C@H](CO)[C@@H](O)[C@H](OC(N)=O)[C@@H]1O)c1cnc[nH]1 | - | PBLC | >0.3 µg/mL
CNC(=O)c1ccc(OC(C)C(=O)N2CCN(C(=O)c3ccccc3)C[C@H]2C)c(OC)c1 | - | HEK | >10 µM
NC(=O)c1cccnc1 | - | SupT1 | >10000 µM
COc1ccc(N2C(=O)C(O)=C(C(=O)/C=C/c3ccccc3)C2c2cccc([N+](=O)[O-])c2)cc1 | - | GHOST R5 | >100 µM
Nc1ncnc2c1ncn2[C@H]1C=C[C@H](O)[C@@H]1O | - | CV-1 | 100 µg/mL
C[C@]1(/C=C/Cl)C[C@](Cl)(CBr)[C@@H](Br)C[C@H]1Cl | - | ZR | 7.8 µg/mL
O=c1[nH]c(=O)n([C@H]2C[C@H](O)[C@@H](CO)O2)cc1/C=C/Br | - | E6SM | >400 µg/mL
Cc1cc([N+](=O)[O-])ccc1C(=O)N(C)C1N=C(c2ccccc2)c2ccccc2NC1=O | - | HEP-2 | 15.9 µM
O=C(/C=C/c1ccc(O)cc1)[Se]c1ccccc1 | WST | HLE | >100 µM
Nc1nc2c(ncn2CCC(CO)CO)c(=O)[nH]1 | - | P3HR-1 | >100 µg/mL
CC(C)CCC[C@@H](C)[C@H]1CC[C@H]2[C@@H]3C(=O)C[C@H]4C[C@@H](O)CC[C@]4(C)[C@H]3CC[C@]12C | tetrazolium | Vero cells | 62 µM
COC(=O)[C@H](C)NP(=O)(OC[C@@H]1CC[C@H](n2cnc3c(N)ncnc32)O1)Oc1ccccc1 | - | CEM | 2.6 µM
CCOC(=O)C(N)(c1c[nH]c2ccc(C)cc12)C(F)(F)F | MTT | TZM-bl | >133 µM
CCOC(=O)Cc1cc(O)cc2oc(-c3ccc(O)cc3)cc(=O)c12 | MTT | HepG 2.2.15 cells | >1020 µg/mL
CCn1cc(C(N)=O)c(=O)c2ccc(F)cc21 | - | VERO | >50 µg/mL
CC(=O)O[C@H]1CC[C@@]2(C)[C@@H](CC(=O)[C@@H]3[C@@H]2CC[C@]2(C)[C@@H]([C@H](C)CCCC(C)(C)O)CC[C@@H]32)C1 | tetrazolium | Vero cells | >128 µM
Nc1nc(N)c2nnn(C[C@H]3CC[C@@H](CO)C3)c2n1 | - | E6SM | >400 µg/mL
COC(=O)C(N)(c1c[nH]c2c(C)cccc12)C(F)(F)F | MTT | TZM-bl | 34.9 µM
Nc1ncnc2c1ncn2[C@H]1C=C[C@@H](CO)O1 | - | CEM | 95 µM
CC(C)CCC[C@@H](C)[C@H]1CC[C@H]2[C@@H]3[C@H](F)C(=O)[C@H]4C[C@@H](O)CC[C@]4(C)[C@H]3CC[C@]12C | tetrazolium | Vero cells | 40 µM
O=C(/C=C/C=C/c1ccccc1)[Se]c1ccccc1 | WST | Li-7 | >100 µM
Nc1nc(NC2CC2)c2ncn(C=C3CC3CO)c2n1 | - | MEF | 220 µM
CCc1cccc(OCCCCN(C)Cc2ccccc2)c1 | cell count / luminescence | HepG2 | >30.4 µM
COc1ccc(C(=O)Nc2cccc(Cn3nc(C(N)=O)c4ccccc43)c2)cc1 | MTT | Huh7.5.1 | 28.42 µM
CCOC(=O)C(N)(C1=CNC2C=CC=C(C)C12)C(F)(F)F | MTT | TZM-bl | 56.6 µM
COc1ccc(N2C(=O)C(O)=C(C(=O)/C=C/c3ccccc3)C2c2ccc([N+](=O)[O-])cc2)cc1 | - | GHOST R5 | >100 µM
CC(=O)NC[C@@H](C=O)NC(=O)[C@H](Cc1ccccc1)NC(=O)[C@H](CC(C)C)NC(=O)OCc1ccccc1 | - | H1-HELA | 316 µM
Nc1ccn([C@@H]2CS[C@H](CO)O2)c(=O)n1 | WST | Li-7 | >100 µM
CCCN(CCC)c1c([N+](=O)[O-])cc(C(F)(F)F)cc1[N+](=O)[O-] | - | Fibroblast | >100 µM
N#Cc1c(-c2ccc(Cl)cc2)nc(SCc2nc3ccccc3[nH]2)[nH]c1=O | MTT | Huh7 | 453 µM
c1ccc(Cc2ccccc2OCCCCn2cccc2)cc1 | cell count / luminescence | HepG2 | >37.1 µM
CC(=O)[C@]1(O)CC[C@@]2(O)[C@]1(C)[C@H](OC(=O)/C=C(\C)C(C)C)CC1[C@@]3(C)CC[C@H](O)CC3=CC[C@]12O | MTT | 2.2.15 | 225 µM
Nc1ncnc2c1ccn2[C@@H]1O[C@H](CO)[C@@H](O)[C@H]1O | - | HEF | <0.4 µg/mL
CC(=O)O[C@H]1CC[C@@]2(C)C(=CC(=O)[C@H]3[C@@H]4CC[C@H]([C@H](C)CCCC(C)C)[C@@]4(C)CC[C@@H]32)C1 | tetrazolium | Vero cells | >128 µM
Nc1ncn([C@@H]2O[C@H](CO)[C@@H](O)[C@H]2O)c(=O)n1 | MTT | H9rAZT2000 | 566 µM
COC(=O)[C@H](C)NP(=O)(OCC1C/C1=C\n1cnc2c(N)ncnc21)Oc1ccccc1 | - | 2.2.15 | 4.5 µM
Cc1cn([C@H]2C=C[C@@H](CO)O2)c(=O)[nH]c1=O | - | CEM | 143 µM

6 of the rows above, restated:

structure | read by | cells | result
O=C(/C=C/c1ccccc1)C1=C(O)C(=O)N(c2cccc(C(=O)O)c2)C1c1ccc([N+](=O)[O-])cc1 | - | GHOST R5 | >100 µM
Cc1cn([C@H]2C=C[C@@H](CO)O2)c(=O)[nH]c1=O | - | CEM | 143 µM
COc1ccc(C(=O)Nc2cccc(Cn3nc(C(N)=O)c4ccccc43)c2)cc1 | MTT | Huh7.5.1 | 28.42 µM
CC(C)CCC[C@@H](C)[C@H]1CC[C@H]2[C@@H]3[C@H](F)C(=O)[C@H]4C[C@@H](O)CC[C@]4(C)[C@H]3CC[C@]12C | tetrazolium | Vero cells | 40 µM
Nc1ccn([C@@H]2CS[C@H](CO)O2)c(=O)n1 | WST | Li-7 | >100 µM
CC(=O)O[C@@H](/C=C(\C)C(=O)O)C[C@@H](C)[C@H]1CC[C@@]2(C)C3CC[C@H]4C(C)(C)C(=O)CC[C@]4(C)C3=CC[C@]12C | - | P-388 | 16.36 µM

An empty or dashed field is not shown. Conditions beyond the fields shown may differ between rows.